US7115708B2 (priority 2001, dated 2006)

Sequences of proteins named here, by UniProt entry; tags and fusion partners are left off. A change or cut given only in a name is not applied to a line headed by its entry.
UniProt P41968: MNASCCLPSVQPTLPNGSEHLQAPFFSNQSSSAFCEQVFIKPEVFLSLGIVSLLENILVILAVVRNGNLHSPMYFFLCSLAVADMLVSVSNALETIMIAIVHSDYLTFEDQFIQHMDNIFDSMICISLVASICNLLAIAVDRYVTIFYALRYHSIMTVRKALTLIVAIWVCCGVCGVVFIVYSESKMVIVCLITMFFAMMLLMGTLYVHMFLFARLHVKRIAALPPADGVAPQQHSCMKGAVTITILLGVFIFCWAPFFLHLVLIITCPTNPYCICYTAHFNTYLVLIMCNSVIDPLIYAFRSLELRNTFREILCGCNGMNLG
UniProt P33032: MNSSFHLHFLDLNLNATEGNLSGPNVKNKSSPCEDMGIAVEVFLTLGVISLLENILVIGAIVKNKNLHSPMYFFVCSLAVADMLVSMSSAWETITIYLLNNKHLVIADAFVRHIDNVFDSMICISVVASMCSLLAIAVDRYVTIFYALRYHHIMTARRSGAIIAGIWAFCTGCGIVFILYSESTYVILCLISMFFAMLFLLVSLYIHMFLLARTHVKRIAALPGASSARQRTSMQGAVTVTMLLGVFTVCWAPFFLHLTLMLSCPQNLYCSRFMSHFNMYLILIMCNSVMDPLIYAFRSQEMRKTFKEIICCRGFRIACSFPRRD
UniProt Q99705: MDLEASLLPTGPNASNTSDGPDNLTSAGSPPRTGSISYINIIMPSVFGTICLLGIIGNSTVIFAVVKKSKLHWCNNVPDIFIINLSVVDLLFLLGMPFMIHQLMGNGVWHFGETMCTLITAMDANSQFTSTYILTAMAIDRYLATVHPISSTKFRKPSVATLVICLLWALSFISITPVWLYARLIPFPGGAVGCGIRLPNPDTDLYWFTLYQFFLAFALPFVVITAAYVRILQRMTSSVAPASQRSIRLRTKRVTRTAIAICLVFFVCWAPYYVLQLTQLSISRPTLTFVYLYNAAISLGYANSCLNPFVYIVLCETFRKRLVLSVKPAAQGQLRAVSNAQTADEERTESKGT
UniProt P32245: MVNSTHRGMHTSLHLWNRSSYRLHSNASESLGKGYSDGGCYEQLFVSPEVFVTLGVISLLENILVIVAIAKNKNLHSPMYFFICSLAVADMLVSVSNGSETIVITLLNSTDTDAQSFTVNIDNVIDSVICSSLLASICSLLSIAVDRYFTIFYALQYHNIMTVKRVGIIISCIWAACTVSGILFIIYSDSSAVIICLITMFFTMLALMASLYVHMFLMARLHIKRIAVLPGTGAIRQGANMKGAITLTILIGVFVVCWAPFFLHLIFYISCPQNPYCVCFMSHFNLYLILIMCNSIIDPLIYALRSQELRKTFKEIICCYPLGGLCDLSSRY
UniProt P31391: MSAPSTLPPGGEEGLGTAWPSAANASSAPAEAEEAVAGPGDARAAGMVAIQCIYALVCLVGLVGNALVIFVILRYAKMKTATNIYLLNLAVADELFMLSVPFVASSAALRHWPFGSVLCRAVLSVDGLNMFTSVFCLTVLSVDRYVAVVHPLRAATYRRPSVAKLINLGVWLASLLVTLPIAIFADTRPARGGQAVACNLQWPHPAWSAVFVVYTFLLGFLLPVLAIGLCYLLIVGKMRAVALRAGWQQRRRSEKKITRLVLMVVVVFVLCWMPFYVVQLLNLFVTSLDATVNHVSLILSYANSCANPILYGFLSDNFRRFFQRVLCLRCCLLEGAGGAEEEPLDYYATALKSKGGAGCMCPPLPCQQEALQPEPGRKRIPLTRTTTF
UniProt P35346: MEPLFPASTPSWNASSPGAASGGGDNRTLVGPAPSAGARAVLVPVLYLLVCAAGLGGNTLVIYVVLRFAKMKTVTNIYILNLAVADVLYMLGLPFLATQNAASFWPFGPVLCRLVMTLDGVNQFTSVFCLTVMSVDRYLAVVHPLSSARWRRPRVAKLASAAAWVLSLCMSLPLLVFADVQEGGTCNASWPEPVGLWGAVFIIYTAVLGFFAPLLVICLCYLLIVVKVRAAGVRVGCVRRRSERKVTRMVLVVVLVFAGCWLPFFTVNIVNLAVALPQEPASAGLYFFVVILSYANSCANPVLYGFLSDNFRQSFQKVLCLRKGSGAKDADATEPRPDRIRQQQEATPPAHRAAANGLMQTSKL
UniProt P32745: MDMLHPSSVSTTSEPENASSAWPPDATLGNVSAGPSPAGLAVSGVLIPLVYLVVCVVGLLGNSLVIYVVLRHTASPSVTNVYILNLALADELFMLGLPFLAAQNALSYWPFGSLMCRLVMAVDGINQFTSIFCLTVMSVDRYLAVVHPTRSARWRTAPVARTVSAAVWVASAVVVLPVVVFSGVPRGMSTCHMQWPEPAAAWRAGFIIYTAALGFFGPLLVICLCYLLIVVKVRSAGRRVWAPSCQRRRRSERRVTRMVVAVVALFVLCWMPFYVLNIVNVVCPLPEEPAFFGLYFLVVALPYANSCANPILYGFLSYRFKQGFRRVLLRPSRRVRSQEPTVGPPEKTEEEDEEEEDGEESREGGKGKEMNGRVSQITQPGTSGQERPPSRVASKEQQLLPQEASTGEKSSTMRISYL
UniProt P30874: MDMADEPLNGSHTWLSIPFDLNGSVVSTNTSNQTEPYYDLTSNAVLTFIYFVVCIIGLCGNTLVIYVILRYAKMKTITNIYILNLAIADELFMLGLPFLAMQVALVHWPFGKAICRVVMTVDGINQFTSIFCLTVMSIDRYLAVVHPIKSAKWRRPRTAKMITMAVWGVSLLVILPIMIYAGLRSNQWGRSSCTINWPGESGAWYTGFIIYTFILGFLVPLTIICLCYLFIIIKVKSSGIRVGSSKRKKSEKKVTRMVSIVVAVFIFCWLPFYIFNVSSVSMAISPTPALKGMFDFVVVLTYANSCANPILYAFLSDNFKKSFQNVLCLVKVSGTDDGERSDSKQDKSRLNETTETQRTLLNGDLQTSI
UniProt P30872: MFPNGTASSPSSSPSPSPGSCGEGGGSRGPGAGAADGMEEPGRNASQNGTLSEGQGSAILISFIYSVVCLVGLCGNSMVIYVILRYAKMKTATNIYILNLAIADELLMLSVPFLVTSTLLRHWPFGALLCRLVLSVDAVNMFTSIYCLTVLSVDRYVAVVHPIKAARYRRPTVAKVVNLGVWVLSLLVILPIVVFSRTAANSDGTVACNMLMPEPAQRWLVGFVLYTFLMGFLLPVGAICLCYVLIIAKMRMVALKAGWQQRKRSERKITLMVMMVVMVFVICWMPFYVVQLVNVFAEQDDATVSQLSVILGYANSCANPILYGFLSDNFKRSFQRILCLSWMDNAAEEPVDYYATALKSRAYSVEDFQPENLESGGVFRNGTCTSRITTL

Tests used:
Melanocortin MC3 = Melanocortin MC3 (Homo sapiens, UniProt P41968); experiment: Melanocortin MC3 radioligand binding; details: 10 μM
Melanocortin MC1 = Melanocortin MC1 radioligand binding; details: 10 μM
Melanocortin MC5 = Melanocortin MC5 (Homo sapiens, UniProt P33032); experiment: Melanocortin MC5 radioligand binding; details: for % Inh.: 10 μM
MCH (h) = MCH (h) (Homo sapiens, UniProt Q99705); experiment: MCH (h) radioligand binding; details: 10 μM
Melanocortin MC4 = Melanocortin MC4 (Homo sapiens, UniProt P32245); experiment: Melanocortin MC4 radioligand binding; details: 10 μM
Somatostatin sst2 [1] = experiment: Somatostatin sst2 tissue assay, guinea pig ileum; details: 1 μM
Somatostatin sst4 = Somatostatin sst4 (Homo sapiens, UniProt P31391); experiment: Somatostatin sst4 radioligand binding; details: Hill coefficient
Somatostatin sst5 [2] = experiment: Somatostatin sst5 tissue assay, guinea pig vas deferens; details: 1 μM
MIA PaCa-2 = experiment: alamarBlue tumor cell proliferation assay, Pancreas, MIA PaCa-2; details: for Percent Growth (Mean ± SEM, n = 2): 72-hour incubation, MIA PaCa-2
Somatostatin sst5 [3] = target: Somatostatin sst5 (Homo sapiens, UniProt P35346); experiment: Somatostatin sst5 radioligand binding; details: Hill coefficient
Somatostatin sst3 = Somatostatin sst3 (Homo sapiens, UniProt P32745); experiment: Somatostatin sst3 radioligand binding; details: Hill coefficient
MCF-7 = experiment: alamarBlue tumor cell proliferation assay, Breast, MCF-7; details: for Percent Growth (Mean ± SEM, n = 2): 72-hour incubation, MCF-7
Somatostatin sst2 [4] = target: Somatostatin sst2 (Homo sapiens, UniProt P30874); experiment: Somatostatin sst2 radioligand binding; details: Hill coefficient
Somatostatin sst1 = Somatostatin sst1 (Homo sapiens, UniProt P30872); experiment: Somatostatin sst1 radioligand binding; details: Hill coefficient

Compound: SLWCVCPFRVCPPCHGR^ (335)
- % Inh. (Melanocortin MC3): 67%
- % Inh. (Melanocortin MC1): 60%
- % Inh. (Melanocortin MC5): 96%
- % Inh. (MCH (h)): 83%
- % Inh. (Melanocortin MC4): 67%

Compound: CC(C)C[C@H](N)C(=O)N[C@@H](Cc1ccccc1)C(=O)N[C@H]1CSSC[C@@H](C(=O)N[C@@H](Cc2c[nH]c3ccccc23)C(=O)N2CCC[C@H]2C(=O)N[C@@H](CCCNC(=N)N)C(=O)N2CCC[C@H]2C(=O)N[C@@H](Cc2ccc(O)cc2)C(=O)N2CCC[C@H]2C(=O)N[C@@H](Cc2c[nH]c3ccccc23)C(=O)N[C@@H](CCCNC(=N)N)C(=O)O)NC(=O)[C@H](CO)NC(=O)[C@H](CCCCN)NC(=O)[C@@H](Cc2c[nH]c3ccccc23)NC(=O)[C@H](Cc2ccccc2)NC1=O
- AG (Agonist): inhibition of contraction relative to somatostatin28 responses (Somatostatin sst2 [1]): 68%
- nh (Somatostatin sst4): 1.26
- AG (Agonist): inhibition of contraction relative to somatostatin28 responses (Somatostatin sst5 [2]): 61%
- Percent Growth (Mean ± SEM, n = 2) (MIA PaCa-2; 0.01 μM): 102 ± 3%
- Percent Growth (Mean ± SEM, n = 2) (MIA PaCa-2; 0.1 μM): 102 ± 6%
- Percent Growth (Mean ± SEM, n = 2) (MIA PaCa-2; 1 μM): 100 ± 4%
- Percent Growth (Mean ± SEM, n = 2) (MIA PaCa-2; 10 μM): 109 ± 2%
- Percent Growth (Mean ± SEM, n = 2) (MIA PaCa-2; 100 μM): −14 ± 9%
- Estimated TGI (Total Growth Inhibition) (MIA PaCa-2; MIA PaCa-2, semi-quantitative, nonlinear regression): 95 µM
- nh (Somatostatin sst5 [3]): 0.961
- nh (Somatostatin sst3): 0.714
- Percent Growth (Mean ± SEM, n = 2) (MCF-7; 0.01 μM): 100 ± 8%
- Percent Growth (Mean ± SEM, n = 2) (MCF-7; 0.1 μM): 88 ± 12%
- Percent Growth (Mean ± SEM, n = 2) (MCF-7; 1 μM): 87 ± 9%
- Percent Growth (Mean ± SEM, n = 2) (MCF-7; 10 μM): 102 ± 14%
- Percent Growth (Mean ± SEM, n = 2) (MCF-7; 100 μM): −43 ± 11%
- Estimated TGI (Total Growth Inhibition) (MCF-7; MCF-7, semi-quantitative, nonlinear regression): 81 µM
- nh (Somatostatin sst2 [4]): 1.24
- nh (Somatostatin sst1): 0.736

Compound: CC(C)C[C@H](NC(=O)[C@@H](N)CO)C(=O)N[C@@H](Cc1c[nH]c2ccccc12)C(=O)N[C@H]1CSSC[C@@H]2NC(=O)[C@H](C(C)C)NC(=O)[C@H](CCCNC(=N)N)NC(=O)[C@H](Cc3ccccc3)NC(=O)[C@@H]3CCCN3C(=O)[C@H](CSSC[C@@H](C(=O)N[C@@H](Cc3c[nH]cn3)C(N)=O)NC(=O)[C@@H]3CCCN3C(=O)[C@@H]3CCCN3C2=O)NC(=O)[C@H](C(C)C)NC1=O
- nh (Melanocortin MC5; Hill coefficient): 0.762

Compound: SLWCVCPFRVCPPCHGR^ (334)
- % Inh. (Melanocortin MC1): 66%
- % Inh. (Melanocortin MC5): 89%
- % Inh. (MCH (h)): 65%
- % Inh. (Melanocortin MC4): 58%
